Compound potency records, mixed from different reports. Data source: NIAID ChemDB in PubChem.

Common to all: cytotoxicity tests; cells: VERO; measure: CC50

CCn is the concentration with n% toxicity to the cells.

| structure | read by | result |
|---|---|---|
| COc1nc(N)c2ncn([C@H]3C[C@H](N=[N+]=[N-])[C@@H](CO)O3)c2n1 | MTS | >100 µM |
| O=C(Cc1ccccc1)N[C@@H]1C(=O)N2C(C(=O)O)=C(CN(O)C(=O)c3ccc(F)cc3)CSC12 |  | >128 µM |
| CCN(CC)C(=O)c1ccc2nc3ccccc3c(NC3CCN(Cc4ccccc4)CC3)c2c1 |  | 55 µM |
| COC(=O)[C@H](C)NP(=O)(OCC1C/C1=C/n1cnc2c(N)ncnc21)Oc1ccccc1 |  | <10 µM |
| COc1ccc2nc(Cl)c(/C=C/C(=O)c3ccc(C)o3)cc2c1 | MTS | 22.9 µM |
| COc1cc(Cc2cnc(/N=C3\C(=O)N(CN4CCN(c5c(F)cc6c(=O)c(C(=O)O)cn(C7CC7)c6c5OC)CC4C)c4ccc(Br)cc43)nc2N)cc(OC)c1OC |  | >10 µg/mL |
| O=C(O)c1cn2c(n1)CN(c1cc3c(=O)c(C(=O)O)c4n(c3cc1[N+](=O)[O-])CS4)CC2 | MTT | 141 µM |
| Cc1c(CN2CCSCC2)cc(-c2ccc(Cl)cc2)n1-c1ccc(Cl)cc1 |  | 32 µg/mL |
| COc1ccc2[nH]c3ccc(C=O)cc3c2c1 |  | >102 µg/mL |
| O=c1c(-c2ccccc2)c(O)ccn1[C@@H]1O[C@H](CO)[C@@H](O)[C@H]1O | neutral red | >400 µM |
| Cc1c(CN2CCSCC2)cc(-c2ccc(Cl)cc2)n1-c1ccccc1 |  | 4 µg/mL |
| COc1cc(Cc2cnc(/N=C3\C(=O)N(CN4CCN(c5c(F)cc6c(=O)c(C(=O)O)cn(C7CC7)c6c5OC)CC4C)c4ccc(Cl)cc43)nc2N)cc(OC)c1OC |  | >10 µg/mL |
| O=Cc1ccc2[nH]c3ccccc3c2c1 |  | 101 µg/mL |
| CSc1ncnc2c([C@@H]3O[C@H](COC(C)=O)[C@@H](OC(C)=O)[C@H]3OC(C)=O)[nH]nc12 |  | <1 µg/mL |
| C#CCNc1nc(N)nc2c1ncn2[C@H]1C[C@H](N=[N+]=[N-])[C@@H](CO)O1 | MTS | >100 µM |
| Nc1nc2c(ncn2C=C2CC2CO)c(=O)[nH]1 |  | 85 µM |
| Cc1c(CN2CCSCC2)cc(-c2ccccc2)n1-c1ccc(Cl)cc1 |  | 8 µg/mL |
| O=C(O)c1c2n(c3cc([N+](=O)[O-])c(N4CCC(N5CCCCC5)CC4)cc3c1=O)CS2 | MTT | 141 µM |
| COc1ccc2nc(Cl)c(/C=C/C(=O)c3sccc3Br)cc2c1 | MTS | 9.5 µM |
| CC(C)(C)OC(=O)NC1C2CN(c3cc4c(=O)c(C(=O)O)c5n(c4cc3F)CS5)CC21 | MTT | 140 µM |
| CC1(C)C(OC2O[C@H](C(=O)O)[C@@H](O)[C@H](N[C@@H]3O[C@H](CO)[C@H](O)[C@H](O)[C@H]3O)[C@H]2OC2O[C@H](O)[C@@H](O)[C@H](O)[C@H]2C(=O)O)CC[C@@]2(C)C1CC[C@]1(C)C2C(=O)C=C2C3C[C@@](C)(C(=O)O)CC[C@]3(C)CC[C@]21C |  | 32 µg/mL |
| CCOC(=O)C1=C(C)NC(=O)NC1c1cn(-c2ccccc2)nc1-c1ccc(F)cc1 |  | >10 µg/mL |
| CN(C)c1cccc(-c2cc(C(F)(F)F)nc3c(C(F)(F)F)cccc23)c1 |  | 39 µM |
| CCCCCCCC(=O)N1CC2=C(C(=O)O1)N1C(=O)[C@@H](NC(=O)Cc3ccccc3)C1SC2 |  | 19.5 µM |
| O=C(O)c1c2n(c3cc([N+](=O)[O-])c(N4CCC(O)(c5ccc(Cl)cc5)CC4)cc3c1=O)CS2 | MTT | 64.03 µM |
| O=C(Nc1ccc(Cl)cc1)N1CCCC[C@H]1[C@@H](O)c1cc(C(F)(F)F)nc2c(C(F)(F)F)cccc12 |  | 10 µM |
| COc1cc(Cc2cnc(/N=C3\C(=O)N(CN4CCN(c5cc6c(cc5F)c(=O)c(C(=O)O)cn6C5CC5)CC4)c4ccc(F)cc43)nc2N)cc(OC)c1OC |  | >62.5 µg/mL |
| CSc1ncnc2c1cnn2[C@@H]1O[C@H](COC(C)=O)[C@@H](OC(C)=O)[C@H]1OC(C)=O |  | 320 µg/mL |
| CCn1cc(C(=O)O)c(=O)c2cc(F)c(N3CCN(CC(C)=O)CC3)c(F)c21 |  | >10 µg/mL |
| COc1cc(Cc2cnc(/N=C3\C(=O)N(CN4CCN(c5cc6c(cc5F)c(=O)c(C(=O)O)cn6C5CC5)CC4)c4ccc(Cl)cc43)nc2N)cc(OC)c1OC |  | >10 µg/mL |
| CC(C)=CCc1c(O)ccc2[nH]c3ccc(C=O)cc3c12 |  | >102 µg/mL |
| COC1=Cc2c(cc(OC3=C4C(=CC(=O)C4(C)C)c4cc(OC)c(C)cc4C3=O)c3cc(C)c(OC)cc23)C(C)(C)C1=O | absorbance | >10 µM |
| O=C(Cc1ccccc1)N[C@@H]1C(=O)N2C(C(=O)O)=C(CN3CCN(c4cc5c(cc4F)c(=O)c(C(=O)O)cn5C4CC4)CC3)CS[C@H]12 |  | 13.1 µM |
| CN1CCN(C(=O)c2ccc3c(NCCc4c[nH]c5ccccc45)c4ccccc4nc3c2)CC1 |  | 50 µM |
| C[N+](C)(C)C(Cc1ccccc1)C(=O)[O-] |  | >100 µg/mL |
| COc1ccc2nc(Cl)c(/C=C/C(=O)c3ccc4c(c3)OCCO4)cc2c1 | MTS | 12.1 µM |
| CCOC(=O)C1=C(C)NC(=S)NC1c1cn(-c2ccccc2)nc1-c1ccc(C)cc1 |  | 8.9 µg/mL |
| [N-]=[N+]=N[C@H]1C[C@H](n2cnc3c(NC4CC4)nc(Cl)nc32)O[C@@H]1CO | MTS | >100 µM |
| O=C(NCc1ccc(Cl)cc1)c1c[nH]c2ccc(CCCO)cc2c1=O |  | 42.7 µM |
| Cn1cnc2c(NC(=O)c3ccccc3C(F)(F)F)nc(Cl)cc21 | MTT | 169 µM |
| O=C(O)c1c2n(c3cc([N+](=O)[O-])c(N4CCC5(CC4)OCCO5)cc3c1=O)CS2 | MTT | 149 µM |
| C=CCN1CCCC[C@H]1[C@@H](O)c1cc(C(F)(F)F)nc2c(C(F)(F)F)cccc12 |  | >128 µM |
| Cn1cnc2c(NC(=O)c3cccc(C(F)(F)F)c3)nc(Cl)cc21 | MTT | 183 µM |
| O=C(NCc1ccc(Cl)cc1)c1c[nH]c2c(F)cc(CCCO)cc2c1=O |  | >50 µM |
| COc1ccc2nc(Cl)c(/C=C/C(=O)c3cc(C)oc3C)cc2c1 | MTS | >100 µM |
| C[C@H]([C@@H]1CC[C@H](C)C(=O)O1)[C@H]1CC[C@@]2(C)C3=C(CC[C@]12C)[C@@]1(C)CC[C@@H](O)C(C)(C)C1CC3 |  | >100 µg/mL |
| CN(C)c1ccc(-c2cc(C(F)(F)F)nc3c(C(F)(F)F)cccc23)cc1 |  | 35 µM |
| CCn1cc(C(=O)O)c(=O)c2cc(F)c(N3CCN(CN4C(=O)/C(=N\c5ncc(Cc6cc(OC)c(OC)c(OC)c6)c(N)n5)c5cc(C)ccc54)C(C)C3)c(F)c21 |  | >10 µg/mL |
| CCOC(=O)C1=C(C)NC(N)=NC1c1cn(-c2ccccc2)nc1-c1ccc(Cl)cc1 |  | >10 µg/mL |
| O=C(O)c1c2n(c3cc([N+](=O)[O-])c(N4CCN(C(=O)c5ccco5)CC4)cc3c1=O)CS2 | MTT | 137 µM |
| COc1ccc(C(=O)N2CC3=C(C(=O)O2)N2C(=O)[C@@H](NC(=O)Cc4ccccc4)[C@H]2SC3)cc1 |  | >128 µM |
| C[C@H]([C@@H]1CC[C@H](C)[C@@H](O)O1)[C@H]1CC[C@@]2(C)C3=C(CC[C@]12C)[C@@]1(C)CCC(=O)C(C)(C)C1CC3 |  | >100 µg/mL |
| COc1cc(Cc2cnc(/N=C3\C(=O)N(CN4CCN(c5cc6c(cc5F)c(=O)c(C(=O)O)cn6C5CC5)CC4)c4ccc(C)cc43)nc2N)cc(OC)c1OC |  | >10 µg/mL |
| Cc1ccc2nc(Cl)c(/C=C/C(=O)c3ccc(C)o3)cc2c1 | MTS | 13.3 µM |
| COc1ccc(-c2c(O)ccn([C@@H]3O[C@H](COC(C)=O)[C@@H](OC(C)=O)[C@H]3OC(C)=O)c2=O)cc1OC | neutral red | >400 µM |
| CSCc1nc2ccccc2n1C(=O)OC(C)C |  | 138 µM |
| COC(=O)C1=C(C)NC(=O)NC1c1cn(-c2ccccc2)nc1-c1ccc(C)cc1 |  | >10 µg/mL |
| Nc1ncnc2c1ncn2C=C1CC1CO |  | 59 µM |
| O=C(O)c1c2n(c3cc(F)c(N4CCN(C(=O)c5ccco5)CC4)cc3c1=O)CS2 | MTT | >146 µM |
| NC(=O)CN1CCCC[C@H]1[C@@H](O)c1cc(C(F)(F)F)nc2c(C(F)(F)F)cccc12 |  | >128 µM |
| O=C(O)c1c2n(c3cc(F)c(N4CCC5(CC4)OCCO5)cc3c1=O)CS2 | MTT | >159 µM |
| Nc1cccc(-c2cc(C(F)(F)F)nc3c(C(F)(F)F)cccc23)c1 |  | 45 µM |

Again, the opening 7 rows:

structure	read by	result
COc1nc(N)c2ncn([C@H]3C[C@H](N=[N+]=[N-])[C@@H](CO)O3)c2n1	MTS	>100 µM
O=C(Cc1ccccc1)N[C@@H]1C(=O)N2C(C(=O)O)=C(CN(O)C(=O)c3ccc(F)cc3)CSC12		>128 µM
CCN(CC)C(=O)c1ccc2nc3ccccc3c(NC3CCN(Cc4ccccc4)CC3)c2c1		55 µM
COC(=O)[C@H](C)NP(=O)(OCC1C/C1=C/n1cnc2c(N)ncnc21)Oc1ccccc1		<10 µM
COc1ccc2nc(Cl)c(/C=C/C(=O)c3ccc(C)o3)cc2c1	MTS	22.9 µM
COc1cc(Cc2cnc(/N=C3\C(=O)N(CN4CCN(c5c(F)cc6c(=O)c(C(=O)O)cn(C7CC7)c6c5OC)CC4C)c4ccc(Br)cc43)nc2N)cc(OC)c1OC		>10 µg/mL
O=C(O)c1cn2c(n1)CN(c1cc3c(=O)c(C(=O)O)c4n(c3cc1[N+](=O)[O-])CS4)CC2	MTT	141 µM

Neighbouring rows are from separate reports. An empty or dashed field is not shown.